PubChem BioAssay AID504761, Drosophila RNAi Screening Center | 2011

Screen: 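Fly genes whose silencing reduces dengue virus type 2 infection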 (primary screen)
System: D.Mel-2 cells from Drosophila
Knock-down reagent: long dsRNA against Drosophila genes
Conditions: infection with dengue virus type 2; dose and infection time not stated
Read-out: 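Cells stained for dengue envelope protein and imaged; percent of infected cells per well on duplicate plates, ranked by infection, with stained nuclei counted for cell number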
Scale: infection score: higher = more virus-infected cells; cell count: higher = more cells in the well
Call rule: 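Very low infection ranking in both replicate wells (chance probability at most 0.065), then a retest showing infection dropped 1.5-fold or more at p below 0.05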
Calls: active = confirmed: knock-down lowers infection; inactive = not picked or not confirmed
In all, the deposit lists about 22,000 reagents; this is a random part of those that have a named target and a result. Of all reagents, 116 (0.52%) are marked active. 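Calls depend on retest data that are not deposited; infection was ranked per plate without normalising between plates; the unit of the infection score is not given.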 The raw values are shown without normalisation. Unmarked entries are inactive. Reagents against one gene are numbered here. Not given: the amount of reagent, the time to read-out.

The opening 2 entries as a preview:
Target gene	dsRNA no.	infection score, replicate 1	infection score, replicate 2	cell count, replicate 1	cell count, replicate 2
CG6656	1	4.91	4.42	5766	6874
CG30457	1	2.64	2.28	5713	6456

Main list, from the first entry:
Target gene	dsRNA no.	infection score, replicate 1	infection score, replicate 2	cell count, replicate 1	cell count, replicate 2
CG6656	1	4.91	4.42	5766	6874
CG30457	1	2.64	2.28	5713	6456
CG30457	2	11.8		5235	386
hook	1	13.5	4.47	6254	5858
CG11777	1	12	6.4	5501	6669
CG11777	2	3.66	6.69	6063	5949
Prp3	1	11.9	19.7	2655	2538
Stoml2	1	13.2	30.4	5935	3344
Mip	1	2.8	9.29	6243	5682
CG14346	1	1.26	2.99	6274	6397
CG14346	2	6.11	8.85	6711	6599
unc-13	1	0.06	0.45	6456	4900
unc-13	2	0.46	2.18	6122	6332
unc-13	3	9.15	8.38	6370	6671
CG17118	1	1.86	1.04	6877	6726
sdk	1	7.76	25.1	5630	5766
ema	1	3.07	4.54	6549	6454
CG30280	1	15	17.9	2181	5040
CG42450	1	1.34	3.69	6130	5426
CG42450	2	1.01	8.46	5071	6214
CG32214	1	7.81	2.73	6122	5979
CG10252	1	17.5	28.4	5845	3901
bap	1		0.89	472	7208
bap	2	23.5	26	3774	5439
CG31661	1	2.81	3.12	6486	5742
CG31661	2			336	399
CG4286	1	18.1	26.6	5121	5266
CG4286	2	18.8	14.1	6715	5785
CG5062	1	6.22	8.32	6124	5928
sfl	1	0.55	0.2	6048	5987
sfl	2	0.37	0.26	5634	5698
sfl	3	1.55	1.99	6073	5841
Roe1	1	3.81	15.2	5833	5763
Roe1	2	1.19	5.61	5613	5399
ClC-b	1	6.51	20	6883	5604
CG5727	1	12.8	18.1	6449	6139
CG5727	2		12.4	355	5646
CG13088	1	4.49	6.03	6163	6404
Oda	1	2.92 (active)	4.23	5758	6099
Oda	2	11.6	4.14	6261	6378
